From article PMC5802825, “Legionella DotM structure reveals a role in effector recruiting to the Type 4B secretion system” (2018)

Target: DotM153 WT (cytoplasmic domain of DotM, residues 153–380) (Legionella pneumophila subsp. pneumophila, UniProt Q5ZYC7)
Assay: Isothermal titration calorimetry of effector C-terminal peptides binding to wild-type DotM153
Settings: ITC, 25 °C, 100 mM NaCl, 25 mM HEPES pH 7.5, protein 10–30 μM, peptide 220–350 μM, single-site-binding model

Row | SMILES | KD (μM)
1 | CC(C)C[C@H](NC(=O)[C@H](CO)NC(=O)[C@H](CO)NC(=O)[C@H](CC(C)C)NC(=O)[C@H](CC(C)C)NC(=O)[C@H](CO)NC(=O)[C@H](CO)NC(=O)[C@H](CCC(=O)O)NC(=O)[C@H](CCC(=O)O)NC(=O)[C@H](CCC(=O)O)NC(=O)[C@H](CCC(=O)O)NC(=O)[C@H](CCC(=O)O)NC(=O)[C@H](CCC(=O)O)NC(=O)[C@H](CCC(=O)O)NC(=O)[C@H](CCC(=O)O)NC(=O)[C@H](CC(C)C)NC(=O)[C@H](CC(C)C)NC(=O)[C@@H](NC(=O)[C@H](CC(=O)O)NC(=O)[C@H](CC(=O)O)NC(=O)[C@H](CO)NC(=O)[C@H](CO)NC(=O)[C@H](Cc1ccccc1)NC(=O)CNC(=O)CN)C(C)C)C(=O)N[C@@H](CCCCN)C(=O)N[C@@H](CCC(=O)O)C(=O)O | high affinity
2 | CSCC[C@H](NC(=O)[C@@H](NC(=O)[C@H](Cc1ccccc1)NC(=O)[C@H](CCCNC(=N)N)NC(=O)[C@H](CO)NC(=O)[C@H](CO)NC(=O)[C@H](CCC(=O)O)NC(=O)[C@H](CCC(=O)O)NC(=O)[C@H](CC(N)=O)NC(=O)[C@H](CCC(=O)O)NC(=O)[C@H](CCC(=O)O)NC(=O)[C@H](CCC(=O)O)NC(=O)[C@H](CCCCN)NC(=O)[C@H](CCC(=O)O)NC(=O)[C@H](CCC(=O)O)NC(=O)[C@H](CC(N)=O)NC(=O)[C@H](CCC(=O)O)NC(=O)[C@H](CO)NC(=O)[C@H](CO)NC(=O)[C@H](CCC(=O)O)NC(=O)[C@H](CO)NC(=O)[C@H](CO)NC(=O)[C@H](CO)NC(=O)[C@H](Cc1ccccc1)NC(=O)[C@H](CCC(=O)O)NC(=O)[C@H](C)NC(=O)CNC(=O)CN)[C@@H](C)O)C(=O)O | high affinity
3 | CC(C)[C@H](NC(=O)[C@H](CO)NC(=O)[C@H](C)NC(=O)[C@H](CO)NC(=O)[C@H](CC(N)=O)NC(=O)[C@H](CCCNC(=N)N)NC(=O)[C@H](CO)NC(=O)[C@H](CCC(=O)O)NC(=O)[C@H](CCC(=O)O)NC(=O)[C@H](CC(=O)O)NC(=O)[C@H](CCC(=O)O)NC(=O)[C@H](CC(N)=O)NC(=O)[C@H](CCC(=O)O)NC(=O)[C@H](CCC(=O)O)NC(=O)[C@H](CCC(=O)O)NC(=O)[C@H](CO)NC(=O)[C@H](CCC(=O)O)NC(=O)[C@H](C)NC(=O)[C@H](CCCCN)NC(=O)[C@H](CC(=O)O)NC(=O)[C@H](CCC(=O)O)NC(=O)[C@H](CO)NC(=O)[C@@H](NC(=O)[C@@H](NC(=O)[C@H](CCCCN)NC(=O)[C@@H]1CCCN1C(=O)CNC(=O)CN)C(C)C)C(C)C)C(=O)O | high affinity
